# According to publication PMC8982737, “Discovery of S-217622, a Noncovalent Oral SARS-CoV-2 3CL Protease Inhibitor Clinical Candidate for Treating COVID-19” (Journal of Medicinal Chemistry, 2022):
# Target: SARS-CoV-2 3CL protease (Severe acute respiratory syndrome coronavirus 2, UniProt P0DTD1)
# Details: read-out: SARS-CoV-2 3CLpro IC50
row,SMILES,pIC50
1,COc1ccc(N=c2[nH]c(=O)n(Cc3ncn(C)n3)c(=O)n2Cc2cc(F)c(F)c(F)c2)cc1,5.96
2,COc1ccc(N=c2[nH]c(=O)n(Cc3nc[nH]n3)c(=O)n2Cc2cc(F)c(F)c(F)c2)cc1,6.55

# pIC50: −log10 of the molar value. Structures were worked out from names or drawings and are uncertain.
